Among the data in PMC3878761, “Interactions of peptide triazole thiols with Env gp120 induce irreversible breakdown and inactivation of HIV-1 virions” (Retrovirology, 2013) are IC50 and inhibition by T20 of KR13-induced p24 release from HIV-1 R3A pseudovirus, IC50 values, retold here.

As a reminder, the IC50 is the concentration that inhibits the measured activity by half.

The subject of one experiment is HIV-1 R3A pseudovirus. To be noted: read-out: IC50, infection inhibition, R3A, HOS CD4^+ve CCR5^+ve cells, Figure S9, ± SD, n = 3.
Experiment [1] has as its system HIV-1 R3A V38A pseudovirus. Conditions: read-out: IC50, infection inhibition, R3A V38A; R3A V38A pseudovirus (T20 resistant), HOS CD4^+ve CCR5^+ve cells, Figure S9; ± SD, n = 3.
For experiment [2], the target named is HIV-1 R3A Env gp41 on pseudovirions (HIV-1 R3A).

Take enfuvirtide: the results for the IC50 (with HIV-1 R3A pseudovirus; in experiment [1]) were 171 ± 45.9 nM and 3300 ± 200 nM, respectively.

The substance enfuvirtide (T20) (peptide) gave an inhibition by T20 of KR13-induced p24 release from HIV-1 R3A pseudovirus, IC50 in experiment [2] of 5.9 nM.
